Laboratory results published in publication PMC12305662, “Fragment-Based Development of Small Molecule Inhibitors Targeting Mycobacterium tuberculosis Cholesterol Metabolism” (Journal of Medicinal Chemistry, 2025).

Protein sequences, listed by entry. Tags and fused reporters are not part of them. Lines headed by an entry give the natural chain unless they say otherwise; changes in a name come on top.
UniProt P9WPP1: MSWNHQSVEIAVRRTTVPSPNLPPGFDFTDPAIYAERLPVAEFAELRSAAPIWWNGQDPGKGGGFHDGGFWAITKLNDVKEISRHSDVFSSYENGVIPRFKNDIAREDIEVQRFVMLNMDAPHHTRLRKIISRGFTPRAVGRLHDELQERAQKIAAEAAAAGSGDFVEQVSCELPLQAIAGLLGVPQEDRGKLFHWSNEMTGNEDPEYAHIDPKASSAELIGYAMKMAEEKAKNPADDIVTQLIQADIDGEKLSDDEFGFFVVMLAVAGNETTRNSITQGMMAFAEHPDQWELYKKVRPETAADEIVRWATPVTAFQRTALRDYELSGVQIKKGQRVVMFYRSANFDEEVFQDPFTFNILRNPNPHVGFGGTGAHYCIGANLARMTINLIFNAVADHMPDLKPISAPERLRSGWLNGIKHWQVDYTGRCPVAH
UniProt P9WPL5: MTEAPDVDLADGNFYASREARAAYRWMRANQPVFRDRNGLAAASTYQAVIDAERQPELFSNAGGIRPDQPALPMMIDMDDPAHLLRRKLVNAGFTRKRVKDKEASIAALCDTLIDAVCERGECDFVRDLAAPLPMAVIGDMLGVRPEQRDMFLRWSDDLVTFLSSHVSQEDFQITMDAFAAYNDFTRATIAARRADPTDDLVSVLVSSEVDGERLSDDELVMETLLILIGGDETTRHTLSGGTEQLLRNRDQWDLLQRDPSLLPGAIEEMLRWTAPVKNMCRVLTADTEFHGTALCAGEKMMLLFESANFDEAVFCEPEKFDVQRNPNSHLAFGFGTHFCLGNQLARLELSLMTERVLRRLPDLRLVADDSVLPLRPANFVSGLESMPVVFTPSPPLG

Tests used:
[1] = target: CYP125 (Mycobacterium tuberculosis, UniProt P9WPP1); format: binding; settings: compound 100 µM, P450 5 µM; ratio of low spin to high spin CYP125
[2] = target: CYP142 (Mycobacterium tuberculosis, UniProt P9WPL5); settings: compound 100 µM, P450 5 µM

## 3-(Pyridin-4-ylmethyl)aniline [3d]
[1]
  CYP125 LS/HS: 1.3
[2]
  CYP142 Δλmax (nm): 2 nm
